# Results: PubChem BioAssay
# Where “and” joins values, the source holds several entries; their conditions need not be identical. Equal values may be shown once. The entries are a selection whose mix differs from that of the whole data set. Calls of active or inactive are those of the source. Rule as the data show it: active = parasite load remaining mostly below about 12% (no sharp cut-off); inactive = mostly above about 10%.
# Assay: P. berghei load reduction in hepatocytes – cell-based, HepG2, luciferase luminescence, HepG2 viability, primary screen (AID 624349);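 also: 100% = mean of DMSO negative control wells on the same plate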
# Conditions: P. berghei liver stage in HepG2, luciferase luminescence; stronger effect = lower value; concentration not given here
smiles,measurement,value
NC(=O)Nc1ccc([As](=O)(O)O)cc1,parasite load remaining,inactive: 110% and inactive: 74.2%
